Values of other authors, collected in paper PMC9452303, “Archaic chaperone–usher pili self-secrete into superelastic zigzag springs” (2022).

Target: Caf1A NTD (Yersinia pestis) (UniProt P26949)
Settings: cited from earlier work

In the case of “Caf1M-Caf1 complex (from UniProt P26926)”, the Kd is listed as 2400 nM.
